Data source: PubChem BioAssay AID624099 (ICCB-Longwood, 2012)

Assay: 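Host factors E2 relies on to silence an HPV18 LCR reporter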 (primary screen)
Cells: human C33A cervical carcinoma cells (HPV-negative) stably expressing BPV1 E2 and an HPV18 LCR luciferase reporter
Knock-down reagent: siRNA pool against human genes, 40 nM
Timing: 72 h
Detection: 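Per-well luciferase luminescence, z-scored on each plate against the plate mean and SD with control wells left out, then averaged across three replicate plates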
Reading the numbers: mean z-score and z-score: higher = stronger reporter signal, weaker E2 silencing
Hit rule: 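Mean z ≥ 2 together with z ≥ 2 in two or more of the three replicates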
The whole screen tested about 21,000 reagents; below is a part drawn at random. Of all reagents, 497 (2.4%) are marked active. 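Higher z means weaker E2 silencing; only reporter increases were scored, and knock-downs that hurt cell survival may mask genuine repressor factors.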

NSF (N-ethylmaleimide sensitive factor, vesicle fusing ATPase)
- mean z-score: 0.29
- z-score, replicate A: 0.23
- z-score, replicate B: 0.17
- z-score, replicate C: 0.48
- Call: inactive

PI16 (peptidase inhibitor 16)
- mean z-score: -0.71
- z-score, replicate A: -0.85
- z-score, replicate B: -0.57
- z-score, replicate C: -0.72
- Call: inactive

MRE11 (MRE11 double strand break repair nuclease)
- mean z-score: 0.92
- z-score, replicate A: 1.37
- z-score, replicate B: 0.5
- z-score, replicate C: 0.9
- Call: inactive

CBFA2T2 (CBFA2/RUNX1 partner transcriptional co-repressor 2)
- mean z-score: 1.96
- z-score, replicate A: 1.94
- z-score, replicate B: 1.9
- z-score, replicate C: 2.05
- Call: inactive

C9 (complement C9)
- mean z-score: -0.76
- z-score, replicate A: -0.75
- z-score, replicate B: -0.67
- z-score, replicate C: -0.84
- Call: inactive

RAB11B (RAB11B, member RAS oncogene family)
- mean z-score: -1
- z-score, replicate A: -1.06
- z-score, replicate B: -1.12
- z-score, replicate C: -0.84
- Call: inactive

CACNB2 (calcium voltage-gated channel auxiliary subunit beta 2)
- mean z-score: 0.11
- z-score, replicate A: -0.11
- z-score, replicate B: 0.32
- z-score, replicate C: 0.13
- Call: inactive

IGSF1 (immunoglobulin superfamily member 1)
- mean z-score: -0.93
- z-score, replicate A: -0.94
- z-score, replicate B: -0.96
- z-score, replicate C: -0.89
- Call: inactive

TBC1D10A (TBC1 domain family member 10A)
- mean z-score: -0.29
- z-score, replicate A: -0.6
- z-score, replicate B: -0.16
- z-score, replicate C: -0.1
- Call: inactive

AGMAT (agmatinase (putative))
- mean z-score: 0.43
- z-score, replicate A: 0.18
- z-score, replicate B: 0.49
- z-score, replicate C: 0.64
- Call: inactive

4 of these entries, reformatted:
gene,mean z-score,"z-score, replicate A","z-score, replicate B","z-score, replicate C",Call
CBFA2T2 (CBFA2/RUNX1 partner transcriptional co-repressor 2),1.96,1.94,1.9,2.05,inactive
C9 (complement C9),-0.76,-0.75,-0.67,-0.84,inactive
"RAB11B (RAB11B, member RAS oncogene family)",-1,-1.06,-1.12,-0.84,inactive
CACNB2 (calcium voltage-gated channel auxiliary subunit beta 2),0.11,-0.11,0.32,0.13,inactive

Next records follow:
ZNF227 (zinc finger protein 227)
- mean z-score: -0.29
- z-score, replicate A: -0.21
- z-score, replicate B: -0.51
- z-score, replicate C: -0.15
- Call: inactive

MSMB (microseminoprotein beta)
- mean z-score: 0.62
- z-score, replicate A: 0.48
- z-score, replicate B: 0.48
- z-score, replicate C: 0.89
- Call: inactive

RPL37A (ribosomal protein L37a)
- mean z-score: -2.54
- z-score, replicate A: -2.62
- z-score, replicate B: -2.34
- z-score, replicate C: -2.66
- Call: inactive

HSPB8 (heat shock protein family B (small) member 8)
- mean z-score: 0.4
- z-score, replicate A: 0.21
- z-score, replicate B: 0.74
- z-score, replicate C: 0.26
- Call: inactive

ZC3H13 (zinc finger CCCH-type containing 13)
- mean z-score: 2.75
- z-score, replicate A: 2.75
- z-score, replicate B: 2.43
- z-score, replicate C: 3.05
- Call: active

THADA (THADA armadillo repeat containing)
- mean z-score: -0.59
- z-score, replicate A: -0.13
- z-score, replicate B: -0.15
- z-score, replicate C: -1.48
- Call: inactive

LGALS2 (galectin 2)
- mean z-score: 1.2
- z-score, replicate A: 1.55
- z-score, replicate B: 0.95
- z-score, replicate C: 1.1
- Call: inactive

GRM6 (glutamate metabotropic receptor 6)
- mean z-score: 2.09
- z-score, replicate A: 2.2
- z-score, replicate B: 1.99
- z-score, replicate C: 2.08
- Call: active

GOLGA5 (golgin A5)
- mean z-score: 0.96
- z-score, replicate A: 1.28
- z-score, replicate B: 0.76
- z-score, replicate C: 0.83
- Call: inactive

EZHIP (EZH inhibitory protein)
- mean z-score: 1.48
- z-score, replicate A: 1.15
- z-score, replicate B: 1.79
- z-score, replicate C: 1.51
- Call: inactive

PTPRZ1 (protein tyrosine phosphatase receptor type Z1)
- mean z-score: 0.55
- z-score, replicate A: 0.65
- z-score, replicate B: 0.45
- z-score, replicate C: 0.55
- Call: inactive

CCL20 (C-C motif chemokine ligand 20)
- mean z-score: 0.72
- z-score, replicate A: 0.68
- z-score, replicate B: 0.7
- z-score, replicate C: 0.76
- Call: inactive

NATD1 (N-acetyltransferase domain containing 1)
- mean z-score: -0.61
- z-score, replicate A: -0.27
- z-score, replicate B: -1.04
- z-score, replicate C: -0.52
- Call: inactive

LINC02910 (long intergenic non-protein coding RNA 2910)
- mean z-score: -0.33
- z-score, replicate A: -0.54
- z-score, replicate B: -0.28
- z-score, replicate C: -0.16
- Call: inactive

EIF3C (eukaryotic translation initiation factor 3 subunit C)
- mean z-score: -2.86
- z-score, replicate A: -2.4
- z-score, replicate B: -2.91
- z-score, replicate C: -3.28
- Call: inactive

NAV2-AS5 (NAV2 antisense RNA 5)
- mean z-score: -0.16
- z-score, replicate A: -0.03
- z-score, replicate B: -0.53
- z-score, replicate C: 0.07
- Call: inactive

MSX1 (msh homeobox 1)
- mean z-score: 1.19
- z-score, replicate A: 1.51
- z-score, replicate B: 1.4
- z-score, replicate C: 0.67
- Call: inactive
